Test results taken from paper PMC4050313, “Panaxadiol and Panaxatriol Derivatives as Anti-Hepatitis B Virus Inhibitors” (Natural Products and Bioprospecting, 2014).

How the values were obtained:
Type in all cases: cell-based, Hepatitis B virus
Settings in all cases: SI (selectivity index) = CC50/IC50
HBV DNA replication = test: Inhibition of HBV DNA replication, real-time PCR, HepG 2.2.15 cells
Experimental: (§1) Based on our previous description, inhibitory activity on HBV (HBsAg, HBeAg and HBV DNA) was evaluated. […] Cytotoxicity was assayed with a modified 3-(4,5-dimethylthiazole-2-yl)-2,5-diphenyltetrazolium bromide (MTT) method (Gibco Invitrogen, Carlsbad, CA, USA). The anti-HBV antigen secretion activities were determined by the enzyme linked immunosorbent assay (ELISA; Autobio Diagnostics Co., Ltd, China). A real-time PCR assay was applied to detect the inhibitory activity on HBV DNA replication.

HBsAg secretion = system: HBsAg secretion
Experimental: as §1

HBeAg secretion = system: HBeAg secretion
Experimental: as §1

| SMILES | HBV DNA SI (HBV DNA replication) | HBsAg SI (HBsAg secretion) | HBeAg SI (HBeAg secretion) |
| --- | --- | --- | --- |
| CC1(C)CCCC(C)(C2CCC3(C)C2C(O)CC2C4(C)CCC(OC(=O)CCC(=O)O)C(C)(C)C4C(OC(=O)CCC(=O)O)CC23C)O1 (centres unmarked) [Compound 21, 3,6-O-Disuccinyl panaxatriol] | >4.1 | – | – |
| CC1(C)CCC[C@](C)([C@H]2CC[C@]3(C)[C@@H]2[C@H](O)C[C@@H]2[C@@]4(C)CC[C@H](O)C(C)(C)[C@@H]4CC[C@]23C)O1 [PD, Panaxadiol] | 6.2 | – | – |
| CC1(C)CCCC(C)(C2CCC3(C)C2C(O)CC2C4(C)CCC(OC(=O)c5cccnc5)C(C)(C)C4CCC23C)O1 (centres unmarked) [Compound 11, 3-O-Nicotinoyl panaxadiol] | 9.8 | – | – |
| CC1(C)CCCC(C)(C2CCC3(C)C2C(O)CC2C4(C)CCC(OC(=O)c5ccco5)C(C)(C)C4CCC23C)O1 (centres unmarked) [Compound 3, 3-O-(2′-Furoyl) panaxadiol] | 23.6 | 1.4 | – |
| CC1(C)CCCC(C)(C2CCC3(C)C2C(O)CC2C4(C)CCC(OC(=O)C5CCCC5)C(C)(C)C4CCC23C)O1 (centres unmarked) [Compound 2, 3-O-Cyclopentanecarbonyl panaxadiol] | 4.2 | 1.7 | – |
| CC(CC(=O)O)CC(=O)O[C@H]1CC[C@]2(C)[C@H]3C[C@@H](O)[C@@H]4[C@@H]([C@@]5(C)CCCC(C)(C)O5)CC[C@@]4(C)[C@]3(C)CC[C@H]2C1(C)C (some centres unmarked) [Compound 17, 3-O-(3′-Methyl) diglutaryl panaxadiol] | 10.8 | – | – |
| CC1(C)CCCC(C)(C2CCC3(C)C2C(O)CC2C4(C)CCC(OC(=O)c5ccccc5O)C(C)(C)C4CCC23C)O1 (centres unmarked) [Compound 9, 3-O-Salicyloyl panaxadiol] | 4.9 | 1.0 | – |
| C[C@H](Cn1cnc2c(N)ncnc21)OCP(=O)(O)O [Tf, Tenofovir, reference compound] | >2417.3 | >1.2 | >1.4 |
| CC1(C)CCC[C@](C)([C@H]2CC[C@]3(C)[C@@H]2[C@H](O)C[C@@H]2[C@@]4(C)CC[C@H](O)C(C)(C)[C@@H]4[C@@H](O)C[C@]23C)O1 [PT, Panaxatriol] | 3.6 | – | – |
| COCC(=O)OC1CC2(C)C(CC(O)C3C(C4(C)CCCC(C)(C)O4)CCC32C)C2(C)CCC(OC(=O)COC)C(C)(C)C12 (centres unmarked) [Compound 25, 3,6-O-Di(2′-methoxyl)acetoxyl-panaxatriol] | – | – | 1.54 |
| CC1(C)CCCC(C)(C2CCC3(C)C2C(O)CC2C4(C)CCC(OC(=O)c5cccnc5)C(C)(C)C4C(OC(=O)c4cccnc4)CC23C)O1 (centres unmarked) [Compound 24, 3,6-O-Dinicotinoyl-panaxatriol] | – | – | 1.54 |
| CC1(C)CCCC(C)(C2CCC3(C)C2C(O)CC2C4(C)CCC(OC(=O)c5cccs5)C(C)(C)C4CCC23C)O1 (centres unmarked) [Compound 4, 3-O-(2′-Thenoyl) panaxadiol] | > 115.7 | > 62.0 | > 105.1 |
| CC1(C)CCCC(C)(C2CCC3(C)C2C(O)CC2C4(C)CCC(OC(=O)CCCC(=O)O)C(C)(C)C4CCC23C)O1 (centres unmarked) [Compound 15, 3-O-Glutaryl panaxadiol] | 3.1 | 1.6 | – |
| CC1(C)CCC[C@](C)([C@H]2CC[C@]3(C)[C@@H]2[C@H](O)C[C@@H]2[C@@]4(C)CC[C@H](OC(=O)c5cc(O)c(O)c(O)c5)C(C)(C)[C@@H]4CC[C@]23C)O1 [Compound 10, 3-O-Galloyl panaxadiol] | 3.6 | – | – |
| CC1(C)CCC[C@](C)([C@H]2CC[C@]3(C)[C@@H]2[C@H](O)C[C@@H]2[C@@]4(C)CC[C@H](OC(=O)c5sccc5Cl)C(C)(C)[C@@H]4CC[C@]23C)O1 [Compound 6, 3-O-(3′-Chloro)-thenoyl panaxadiol] | >37.9 | – | 5.8 |
| CC1(C)CCCC(C)(C2CCC3(C)C2C(O)CC2C4(C)CCC(OC(=O)CCC(=O)O)C(C)(C)C4CCC23C)O1 (centres unmarked) [Compound 14, 3-O-Succinyl panaxadiol] | 10.7 | – | 1.1 |
| CC1(C)CCC[C@](C)([C@H]2CC[C@]3(C)[C@@H]2[C@H](O)C[C@@H]2[C@@]4(C)CC[C@H](OC(=O)c5ccccc5)C(C)(C)[C@@H]4CC[C@]23C)O1 [Compound 8, 3-O-Benzoyl panaxadiol] | 4.0 | – | – |
| CCOCC(=O)O[C@H]1CC[C@]2(C)[C@H]3C[C@@H](O)[C@@H]4[C@@H]([C@@]5(C)CCCC(C)(C)O5)CC[C@@]4(C)[C@]3(C)CC[C@H]2C1(C)C [Compound 13, 3-O-2′-Ethyoxyl-acetyl panaxadiol] | – | 2.5 | – |
| CC(C)(CC(=O)O)CC(=O)O[C@H]1CC[C@]2(C)[C@H]3C[C@@H](O)[C@@H]4[C@@H]([C@@]5(C)CCCC(C)(C)O5)CC[C@@]4(C)[C@]3(C)CC[C@H]2C1(C)C [Compound 18, 3-O-(3′,3′-Dimethyl) glutaryl panaxadiol] | 2.5 | – | – |
